Measurements published in article PMC7504336, “Ribosomal RNA Modulates Aggregation of the Podospora Prion Protein HET-s” (International Journal of Molecular Sciences, 2020).

Target: the molecule itself
Test: Rayleigh light scattering

B1: HET-s prion protein from Podospora anserina (natural protein, UniProt Q03689 1-289, looked up)
chain: MSEPFGIVAGALNVAGLFNNCVDCFEYVQLGRPFGRDYERCQLRLDIAKARLSRWGEAVKINDDPRFHSDAPTDKSVQLAKSIVEEILLLFESAQKTSKRYELVADQQDLVVFEDKDMKPIGRALHRRLNDLVSRRQKQTSLAKKTAWALYDGKSLEKIVDQVARFVDELEKAFPIEAVCHKLAEIEIEEVEDEASLTILKDAAGGIDAAMSDAAAQKIDAIVGRNSAKDIRTEERARVQLGNVVTAAALHGGIRISDQTTNSVETVVGKGESRVLIGNEYGGKGFWDN
binding result: binds
